PubChem BioAssay AID624099, ICCB-Longwood – 2012
The whole screen tested about 21,000 reagents; below is a part drawn at random. Of all reagents, 497 (2.4%) got an active call. 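Higher z means weaker E2 silencing; only reporter increases were scored, and knock-downs that hurt cell survival may mask genuine repressor factors.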 Unmarked entries are inactive. Reagents against one gene are numbered here.

Screen: 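Host factors E2 relies on to silence an HPV18 LCR reporter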 (primary screen)
Cells: human C33A cervical carcinoma cells (HPV-negative) stably expressing BPV1 E2 and an HPV18 LCR luciferase reporter
Reagents: siRNA pool against human genes, 40 nM
Timing: 72 h
Detection: 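Per-well luciferase luminescence, z-scored on each plate against the plate mean and SD with control wells left out, then averaged across three replicate plates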
Reading the numbers: mean z-score and z-score: higher = stronger reporter signal, weaker E2 silencing
Hit rule: 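Hit if mean z-score reaches 2 and two or more of three replicate z-scores also reach 2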

Target gene,pool no.,mean z-score,"z-score, replicate A","z-score, replicate B","z-score, replicate C"
PRICKLE4 (GeneID 29964),1,-1.68,-1.88,-1.72,-1.44
KRTAP15-1 (GeneID 254950),1,1.6,1.47,1.9,1.44
ITFG2 (GeneID 55846),1,1.56,1.72,1.48,1.48
SCRT1 (GeneID 83482),1,0.46,0.76,0.47,0.14
SCRT1 (GeneID 83482),2,2.52 (active),2.7,2.7,2.16
SOD1 (GeneID 6647),1,0.97,0.77,0.85,1.28
LOC388163 (retired record) (GeneID 388163),1,0.5,0.21,0.53,0.76
COL18A1 (GeneID 80781),1,-0.32,-0.41,-0.22,-0.31
PPCDC (GeneID 60490),1,-0.49,-1,-0.5,0.04
LOC402525 (retired record) (GeneID 402525),1,-0.24,-0.22,0.04,-0.54
EDIL3 (GeneID 10085),1,0.44,0.38,0.6,0.33
TCTN1 (GeneID 79600),1,0.56,0.72,0.54,0.42
LOC389469 (retired record) (GeneID 389469),1,1.52,1.52,1.57,1.48
PHRF1 (GeneID 57661),1,0.37,0.81,0.12,0.18
P2RX4 (GeneID 5025),1,-0.82,-0.98,-0.82,-0.66
MITF (GeneID 4286),1,0.96,0.78,1.1,1
RHPN2 (GeneID 85415),1,-0.26,-0.1,-0.46,-0.23
USP6NL (GeneID 9712),1,0.59,0.48,0.84,0.45
SAAL1 (GeneID 113174),1,-0.01,-0.22,-0.35,0.53
H4C9 (GeneID 8294),1,0.14,-0.11,0.09,0.45
ZNF607 (GeneID 84775),1,0.88,1.03,0.61,1
SLITRK6 (GeneID 84189),1,-0.33,-0.51,-0.37,-0.1
HAUS5 (GeneID 23354),1,1.86,1.84,1.79,1.94
SOX30 (GeneID 11063),1,1.66,1.4,1.95,1.64
TPM2 (GeneID 7169),1,-0.47,-0.25,-0.57,-0.58
MMP13 (GeneID 4322),1,-0.83,-0.73,-1.02,-0.75
TADA1 (GeneID 117143),1,0.53,0.3,0.51,0.8
WFDC2 (GeneID 10406),1,-0.78,-0.96,-0.69,-0.68
CBLIF (GeneID 2694),1,0.59,0.9,0.3,0.57
PRKACA (GeneID 5566),1,-1.01,-0.63,-1.34,-1.07
SPATA46 (GeneID 284680),1,1.31,1.25,1.34,1.34
IRAK3 (GeneID 11213),1,0.33,0.05,0.34,0.61
DNAJC19 (GeneID 131118),1,0.32,0.11,0.5,0.34
ZNF384 (GeneID 171017),1,-0.02,0.08,,-0.13
FZD9 (GeneID 8326),1,0.16,0.47,0.21,-0.2
MAGEC2 (GeneID 51438),1,-0.66,-0.21,-1.12,-0.64
GSDMA (GeneID 284110),1,-0.19,-0.14,0.05,-0.48
GAD2 (GeneID 2572),1,-0.58,-0.43,-0.7,-0.61
CASP3 (GeneID 836),1,-0.7,-0.76,-1.06,-0.28

An excerpt of the results above, as a working copy:
Target gene,pool no.,mean z-score,"z-score, replicate A","z-score, replicate B","z-score, replicate C"
PPCDC (GeneID 60490),1,-0.49,-1,-0.5,0.04
LOC402525 (retired record) (GeneID 402525),1,-0.24,-0.22,0.04,-0.54
EDIL3 (GeneID 10085),1,0.44,0.38,0.6,0.33
TCTN1 (GeneID 79600),1,0.56,0.72,0.54,0.42
